Anti-infective test results gathered from many reports (values: NIAID ChemDB through PubChem).

Shared fields: enzyme or target tests; organism: Hepatitis C virus

Percent inhibition refers to the dose given; in toxicity tests it is the harm to the cells.

smiles	endpoint	tested at	target	value
c1cncc(COc2ccc(-c3cnc4c(-c5nn[nH]n5)cnn4c3C3CCCCC3)cc2)c1	IC50		RNA-dependent RNA polymerase	<1 µM
O=C(NCc1ccc(Cl)cc1)Nc1ccsc1-c1nc(C(=O)O)c(O)c(=O)[nH]1	IC50		HCV polymerase	<25 µM
Cc1ccc(C)c(S(=O)(=O)Nc2cc(-c3ccc(F)cc3)sc2C(=O)O)c1	IC50		NS3 ATPase	<5 µM
O=C(Cn1c(-c2ccccc2)nc2ccccc21)Nc1cscc1-c1nc(C(=O)O)c(O)c(=O)[nH]1	IC50		HCV polymerase	<25 µM
CC(C)N(C(=O)c1ccc(C(F)(F)F)cc1)c1cc(-c2ccccc2)sc1C(=O)O	IC50		NS3 ATPase	<5 µM
O=C(NC(C(=O)O)C1CCCCC1)c1ccc2c(c1)nc(-c1ccc3nc(-c4ccccc4)cnc3c1)n2C1CCCCC1	inhibition	33 µM	NS5B polymerase	95.99%
COc1ccc(-c2cnc3c(C(=O)O)cnn3c2-c2ccc(OC)cc2)cc1	IC50		RNA-dependent RNA polymerase	>10 µM
O=C(Cc1ccccn1)Nc1ccsc1-c1nc(C(=O)O)c(O)c(=O)[nH]1	IC50		HCV polymerase	<25 µM
Cc1ccc(C(=O)N(C)c2cc(-c3ccccc3Cl)sc2C(=O)O)cc1	IC50		NS3 ATPase	5–20 µM
c1ccc(COc2ccc(-c3cnc4c(-c5nn[nH]n5)cnn4c3C3CCCCC3)cc2)nc1	IC50		RNA-dependent RNA polymerase	1–10 µM
O=C(O)CCC(NC(=O)c1ccc2c(c1)nc(-c1ccc3nc(-c4ccccc4)ccc3c1)n2C1CCCCC1)C(=O)O	inhibition	100 µM	NS5B polymerase	95.62%
CCCC(=O)N(Cc1cccc(OC)c1)c1cc(-c2ccccc2)sc1C(=O)O	IC50		NS3 ATPase	5–20 µM
O=C(O)c1ccc2c(c1)nc(-c1ccc3ccc(-c4ccccc4)nc3c1)n2C1CCCCC1	inhibition	33 µM	NS5B polymerase	90.5%
CCC(=O)C(=O)CC(=O)Nc1cnn2c(C3CCCCC3)c(-c3ccc(OCc4ccccc4)cc3)cnc12	IC50		RNA-dependent RNA polymerase	>10 µM
COC(=O)c1nc(-c2ccc(-c3sccc3NC(=O)CCC(=O)O)cc2)[nH]c(=O)c1O	IC50		HCV polymerase	<50 µM
CC(C)N(C(=O)c1ccc(Cl)cc1N)c1cc(-c2ccccc2)sc1C(=O)O	IC50		NS3 ATPase	<5 µM
Nc1ccc(-c2ccc(Cl)cc2)c(-c2ccc3cc(-c4nc5cc(C(=O)O)ccc5n4C4CCCCC4)ccc3n2)c1	inhibition	33 µM	NS5B polymerase	101%
O=C(O)c1nc(-c2ccccc2[N+](=O)[O-])[nH]c(=O)c1O	IC50		HCV polymerase	<100 µM
Cc1ccc(-c2cc(N(C(=O)c3ccc(Cl)cc3Cl)C(C)C)c(C(=O)O)s2)s1	IC50		NS3 ATPase	<5 µM
O=C(Nc1cccc(C(F)(F)F)c1)Nc1ccccc1-c1nc(C(=O)O)c(O)c(=O)[nH]1	IC50		HCV polymerase	<100 µM
O=C(O)c1ccc2c(c1)nc(-c1ccc3nc(-c4ccccc4)cc(Sc4ccccc4)c3c1)n2C1CCCCC1	inhibition	33 µM	NS5B polymerase	96.33%
O=C(O)c1cc2nc(-c3ccccc3)cc(-c3ccc(Cl)cc3)n2n1	IC50		RNA-dependent RNA polymerase	>10 µM
CCOCCOc1ccc(-c2ccc(Cl)cc2)c(-c2ccc3cc(-c4nc5cc(C(=O)O)ccc5n4C4CCCCC4)ccc3n2)c1	inhibition	33 µM	NS5B polymerase	100.8%
Cc1ccc(C(=O)N(Cc2cccc(Cl)c2)c2cc(-c3ccccc3)sc2C(=O)O)cc1	IC50		NS3 ATPase	<5 µM
COC(=O)c1nc(-c2cscc2NC(=O)NS(=O)(=O)c2ccccc2)[nH]c(=O)c1O	IC50		HCV polymerase	<50 µM
CC1CCC(C(=O)N(c2cc(-c3ccccc3)sc2C(=O)O)C(C)C)C(C)C1	IC50		NS3 ATPase	<5 µM
O=C(Nc1ccsc1-c1nc(C(=O)O)c(O)c(=O)[nH]1)OC1CCCC1	IC50		HCV polymerase	<25 µM

For reference, 4 entries again:

smiles	endpoint	tested at	target	value
O=C(O)c1ccc2c(c1)nc(-c1ccc3ccc(-c4ccccc4)nc3c1)n2C1CCCCC1	inhibition	33 µM	NS5B polymerase	90.5%
O=C(NCc1ccc(Cl)cc1)Nc1ccsc1-c1nc(C(=O)O)c(O)c(=O)[nH]1	IC50		HCV polymerase	<25 µM
O=C(Cc1ccccn1)Nc1ccsc1-c1nc(C(=O)O)c(O)c(=O)[nH]1	IC50		HCV polymerase	<25 µM
CCCC(=O)N(Cc1cccc(OC)c1)c1cc(-c2ccccc2)sc1C(=O)O	IC50		NS3 ATPase	5–20 µM

ICn: concentration for n% inhibition. An empty or dashed field is not shown. Lines come from different laboratories, so protocols vary. Two numbers with a dash give a range or band.